A mixed list of measured activities; the numbers were collected in NIAID ChemDB.

All rows: tests on isolated targets; organism: HIV-1; protein: RNase H

ICn is the concentration giving n% inhibition. Neighbouring rows are from separate reports.

CCOC(=O)C(=O)CC(=O)/C=C/c1cccn1Cc1ccc(C)cc1C ; mutations: Q475A ; measure: IC50 ; read by: substrate cleavage / fluorescence ; value: >100 µM
C[C@H](O)CC[C@@]1(O)[C@@H](C)C[C@H](O[C@H]2O[C@@H](CO)[C@H](O)[C@@H](O)[C@@H]2O)CC1(C)C ; measure: IC50 ; read by: FRET ; value: >20 µM
C#CC(/C=C/C/C=C/C=C/C=C/CC#CC(C#CC/C=C/C=C/C=C/CC(C#C)OC(C)=O)OC(C)=O)OC(C)=O ; measure: IC50 ; read by: radiometric ; value: >100 µM
O=C(/C=C/c1cccn1Cc1ccc(F)cc1)CC(=O)C(=O)O ; mutations: N474A ; measure: IC50 ; read by: substrate cleavage / fluorescence ; value: >100 µM
O=C(CCc1ccc(Cl)cc1)Nc1sc2c(c1C(=O)Nc1ccccn1)CCCCC2 ; measure: IC50 ; read by: RNase H / fluorescence ; value: 9.9 µM
COc1ccc(N2CCN(NC(=O)c3ccc(C(F)(F)F)nc3Nc3cc(Cl)ccc3C)CC2)cc1 ; measure: IC50 ; read by: RNase H / absorbance ; value: 20.8 µM
OC[C@H]1O[C@@H](OCCc2ccc(O)cc2)[C@H](O)[C@@H](O)[C@@H]1O ; measure: IC50 ; read by: FRET ; value: >20 µM
O=C(Cc1ccc2ncccc2c1)Nc1sc2c(c1C(=O)Nc1ccccn1)CCCCC2 ; measure: IC50 ; read by: RNase H / fluorescence ; value: 16.44 µM
CCCC(C)Nc1nc(OCCc2ccc([N+](=O)[O-])cc2)c2ncn([C@@H]3O[C@H](COP(O)(=S)O[C@H]4C[C@H](n5cnc6c(N)ncnc65)O[C@@H]4CO)[C@@H](O)[C@H]3O)c2n1 ; measure: Ki ; read by: RNase H ; value: 0.57 µM
O=C(CCc1ccc(F)cc1)Nc1sc2c(c1C(=O)Nc1ccccn1)CCCCC2 ; measure: IC50 ; read by: RNase H / fluorescence ; value: 14.5 µM
COc1c(/C=C/C(=O)c2ccc(-c3ccccc3)cc2)ccc2ccccc12 ; measure: IC50 ; read by: RNase H / substrate cleavage ; value: 6 µM
CCC(=O)COc1ccc(OC(C)=O)c2c1C(=O)c1ccccc1C2=O ; measure: IC50 ; value: >100 µM
O=[N+]([O-])c1ccccc1S(=O)(=O)c1ccccc1 ; measure: IC50 ; value: >300 µM
C/C(COc1ccc2c(c1O)C(=O)c1ccccc1C2=O)=N\NC(=O)c1ccncc1 ; measure: IC50 ; read by: RNase H ; value: >100 µM
COc1c(/C=C/C(=O)c2ccc(F)cc2)ccc2ccccc12 ; measure: IC50 ; read by: RNase H / substrate cleavage ; value: 23 µM
O=c1oc(-c2ccc(O)cc2)nc2sc3c(c12)CCCCC3 ; measure: IC50 ; read by: RNase H / fluorescence ; value: 21 µM
COc1ccc(C(=O)/C=C/c2ccc3ccccc3c2OC)cc1 ; measure: IC50 ; read by: RNase H / substrate cleavage ; value: 9 µM
O=C(OC[C@H]1O[C@@H](OCCc2ccc(O)cc2)[C@H](O)[C@@H](O)[C@@H]1O)c1cc(O)c(O)c(O)c1 ; measure: IC50 ; read by: FRET ; value: 17.4 µM
O=C(Nc1sc2c(c1C(=O)Nc1ccccn1)CCCCC2)c1ccc(F)cc1Cl ; measure: IC50 ; read by: RNase H / fluorescence ; value: 7.5 µM
Cc1cc(O)c2c(c1)C(=O)c1cc(OCC(=O)c3ccc(Cl)cc3)cc(O)c1C2=O ; measure: IC50 ; read by: RNase H ; value: 91 µM
Cc1nc2ccccc2c(=O)[nH]1 ; measure: IC50 ; read by: RNase H / fluorescence ; value: 3.46 µM
O=C1c2ccccc2C(=O)c2c(O)ccc(O)c21 ; measure: IC50 ; value: >100 µM
C/C(COc1ccc2c(c1O)C(=O)c1ccccc1C2=O)=N\O ; measure: IC50 ; read by: RNase H ; value: >100 µM
CC(=O)Oc1ccc(O)c2c1C(=O)c1ccccc1C2=O ; measure: IC50 ; value: >100 µM
Cc1cc(O)c2c(c1)C(=O)c1cc(O)cc(O)c1C2=O ; measure: IC50 ; read by: RNase H ; value: 75 µM
CCOC(=O)C(=O)CC(=O)/C=C/c1cc(-c2ccccc2)cn1Cc1ccc(F)cc1 ; mutations: R448A ; measure: IC50 ; read by: substrate cleavage / fluorescence ; value: 100 µM
C/C(COc1ccc2c(c1O)C(=O)c1ccccc1C2=O)=N\NC(N)=O ; measure: IC50 ; read by: RNase H ; value: >100 µM
COc1cc(/C=C/CO)cc(OC)c1O[C@@H]1O[C@H](CO)[C@@H](O)[C@H](O)[C@H]1O ; measure: IC50 ; read by: FRET ; value: >20 µM
Cc1nc2c3c(sc2c(=O)o1)CCCCC3 ; measure: IC50 ; read by: RNase H / fluorescence ; value: 4.86 µM
O=c1nc(NCc2ccc(-c3ccccn3)s2)c2cccnc2n1O ; measure: IC50 ; read by: radiometric ; value: 0.013 µM
CO[C@@H]1[C@H](O)[C@@H](COP(=O)(O)O[C@H]2C[C@H](n3cnc4c(=O)[nH]c(N)nc43)O[C@@H]2CO)O[C@H]1n1cnc2c(=O)[nH]c(N)nc21 ; measure: IC50 ; read by: RNase H ; value: 8 µM
CCOC(=O)C(=O)CC(=O)/C=C/c1cccn1Cc1ccccc1Cl ; measure: IC50 ; read by: RNase H / fluorescence ; value: 8.06 µM
Cc1cc(O)c(O)c(O)c(=O)c1 ; measure: IC50 ; read by: RNase H / fluorescence ; value: 1.3 µM
CC(=O)COc1ccc2c(c1OCC(C)=O)C(=O)c1ccccc1C2=O ; measure: IC50 ; read by: RNase H ; value: >100 µM
O=c1nc(Nc2cccc(-c3cccc(CN4CCCCC4)c3)c2)c2cccnc2n1O ; measure: IC50 ; read by: substrate cleavage / radiometric ; value: 0.355 µM
Nc1nc2c(ncn2[C@@H]2O[C@H](COCO[C@H]3[C@@H](O)[C@H](n4cnc5c(=O)[nH]c(N)nc54)O[C@@H]3CO)[C@@H](O)[C@H]2O)c(=O)[nH]1 ; measure: IC50 ; read by: RNase H ; value: 20 µM
O=C(N/N=C/c1ccccc1O)c1cc(O)c(O)c(O)c1 ; measure: IC50 ; read by: RNase H / fluorescence ; value: 5.8 µM
COc1cccc(Cn2cccc2/C=C/C(=O)CC(=O)C(=O)O)c1 ; mutations: R448A ; measure: IC50 ; read by: substrate cleavage / fluorescence ; value: 88 µM
CCC(=O)COc1ccc(O)c2c1C(=O)c1ccccc1C2=O ; measure: IC50 ; value: 86 µM
COC(=O)c1cc(=O)c(O)c(OC)cc1C ; measure: IC50 ; read by: RNase H / fluorescence ; value: 14.7 µM
Cc1ccc(Cl)cc1Nc1nc(C(F)(F)F)ccc1C(=O)NN1CCN(c2cccc(Cl)c2)CC1 ; mutations: K103N ; measure: IC50 ; read by: RNase H / absorbance ; value: 41 µM
NC(=O)c1c(NC(=O)c2ccccc2F)sc2c1CCCCC2 ; measure: IC50 ; read by: RNase H / fluorescence ; value: 13.73 µM
CCCCN(CCCC)c1nc(OCCc2ccc([N+](=O)[O-])cc2)c2ncn([C@@H]3O[C@H](COP(O)(=S)O[C@H]4[C@@H](F)[C@H](n5cnc6c(N)ncnc65)O[C@@H]4CO)[C@@H](O)[C@H]3O)c2n1 ; measure: Ki ; read by: RNase H ; value: 6.5 µM
O=C(Nc1sc2c(c1C(=O)O)CCCCC2)c1ccc(Cl)cc1 ; measure: IC50 ; read by: RNase H / fluorescence ; value: >100 µM
O=C1Cc2ccc(-c3ccco3)cc2C(=O)N1O ; measure: Ki ; read by: RNase H / substrate cleavage / fluorescence ; value: 0.02 µM
Nc1ncnc2c1ncn2[C@@H]1O[C@H](CO)[C@@H](OP(O)(=S)OC[C@H]2O[C@@H](n3cnc4c(=O)[nH]c(NCc5cccc6ccccc56)nc43)[C@H](O)[C@@H]2O)[C@H]1F ; measure: IC50 ; read by: RNase H ; value: 40 µM
O=C(Nc1sc2c(c1C(=O)Nc1ccccn1)CCCCC2)c1ccc(Cl)cc1 ; measure: IC50 ; read by: RNase H / fluorescence ; value: 17.78 µM